Results from patent publication EP4687750B1, “ORAL CARE KIT COMPRISING A LIGHT EMITTING DEVICE AND AN ORAL COMPOSITION” (dated 2026).

Legend:
[1] = system: C. albicans; assay: aPDT on in vitro 6-species supragingival biofilm model, C. albicans; settings: second pilot trial (Fig. 7); chlorhexidine: 2 min application of 0.02% CHXglu; aPDT: 1 mg/ml Curcumin + 4 LEDs 10 seconds light
[2] = system: 6-species biofilm; assay: aPDT on in vitro 6-species supragingival biofilm model, total CFU count
[3] = system: Streptococcus mutans (S. mutans); settings: curcumin activated with a blue LED for several seconds; isolates from plaque of patients with dental caries; cited from earlier work
[4] = summary of pilot trials, Cur-PVP and methylene blue as aPDT (light activated), chlorhexidine alone

Structure (SMILES)	impact on C. albicans [1]	effectiveness in reducing total CFU [2, 4]	selectivity in targeting specific bacteria strains [2, 4]	total CFU (log) ([2]; third pilot trial (Fig. 8), 2 min application of 0.02% CHXglu at 16h, 24h, 40h)	total CFU (log) ([2]; third pilot trial (Fig. 8), 2 min application of 0.02% CHXglu at 16h and 40h)	total CFU (log) ([2]; fourth pilot trial (Fig. 9), 5 min incubation with 0.1 mg/ml Methylene blue + 1 LED 5W (660nm) for 10 seconds)	total CFU (log) ([2]; fourth pilot trial (Fig. 9), 5 min incubation with 1 mg/ml Methylene blue, without light activation)	effect of the photosensitizer alone on the number of bacteria ([2]; no light activation)	photo-inactivation of planktonic suspensions of S. mutans [3]
[H]/N=C(\N/C(=N/[H])NCCCCCCNC(=N)NC(=N)Nc1ccc(Cl)cc1)Nc1ccc(Cl)cc1	strong impact	more effective in reducing total CFU	less selective in targeting specific bacteria strains	around 10^4 CFU	around 10^4 CFU	–	–	–	–
CN(C)c1ccc2nc3ccc(=[N+](C)C)cc-3sc2c1	–	–	less selective in targeting specific bacteria strains	–	–	10^6-10^7 CFU	10^6-10^7 CFU	strong effect	–
COc1cc(/C=C/C(=O)CC(=O)/C=C/c2ccc(O)c(OC)c2)ccc1O	–	–	–	–	–	–	–	–	able to photo-inactivate
